## Results of single-concentration screens

Source: ChEMBL document CHEMBL3988442, “University of Dundee, Small-Polar-MMV Screening Library” (2021).

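Whole-cell growth test on Mycobacterium tuberculosis, read after 4 days in a medium based on cholesterol and the lipid DPPC; the read-out is not stated. Tested at 500 µM. Higher reads as more growth inhibition (inferred: compounds with an IC50 in retests scored well above the rest). Of about 18,000 compounds tested this way, about 900 (5%) reached 50% or more in at least one test.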

Each number is a percent effect as filed. The record does not define 0% and 100%; most values in the screen are far below 50% and negative numbers occur (in some assays of this library far below -100). This is part of a subset picked to be rich in strong results.

SMILES: CC(C)(C#N)C(=O)NCCNc1cccc(Br)c1
percent effect: 64.46

SMILES: CC(C)Cn1cc(NC(=O)N2CCC(O)C2)cn1 (configuration not stated)
percent effect: -27.37

SMILES: N[C@@H]1C[C@H]1c1ccc(F)cc1
percent effect: 16.8

SMILES: CC(C)C(=O)N1CCC(C(N)=O)(c2ccccc2)CC1
percent effect: -12.45

SMILES: CC1c2ccsc2CCN1CCC(=O)NC(N)=O (configuration not stated)
percent effect: 109.2

SMILES: C=C(C)CN1CCC(NC(=O)NC2CC2)CC1
percent effect: -0.6099

SMILES: OC1CCN(c2ccccn2)CC1
percent effect: 0.5004

SMILES: COC(C)(CNC(=O)[C@H]1CCCO1)C1CC1 (some centres not stated)
percent effect: 3.195

SMILES: CCN(CC)S(=O)(=O)CCNC(=O)c1nccnc1N
percent effect: -0.8748

SMILES: Cc1cnc(N2CCC(O)CC2)c(Br)c1
percent effect: 59.25

SMILES: CC1CCCN(C(=O)CN2CCCCC2=O)C1 (configuration not stated)
percent effect: 9.625

SMILES: O=C(CCc1ccccc1)N1CC(c2cccnc2)C1
percent effect: 59.7

SMILES: NS(=O)(=O)c1cnc2ccsc2c1
percent effect: 4.804

SMILES: CCn1cnnc1CNc1ncccc1F
percent effect: 9.125

SMILES: NCCc1ccnc(N)c1
percent effect: 1.615

SMILES: O=C(NCc1cc[nH]n1)N1CCc2sccc2C1
percent effect: 3.401

SMILES: c1ccc(NCCCN2CCOCC2)cc1
percent effect: 21.89

SMILES: Cc1ccc(NC(=O)N2CCSCC2)cc1C(N)=O
percent effect: -13.83

SMILES: O=C(Cn1ccc(C(F)(F)F)n1)NCc1ccco1
percent effect: 38.94

SMILES: CC1Oc2c(cccc2C(=O)N2CCC2(C)C)NC1=O (configuration not stated)
percent effect: -5.882

SMILES: O=C(Nc1cccc(F)c1)N1CCCN(CCO)CC1
percent effect: 7.31

SMILES: CCN1CC(C(=O)Nc2cn(C)cc(Br)c2=O)CC1=O (configuration not stated)
percent effect: 5.426

SMILES: COCCNC(=O)c1cc(-c2ccccc2F)no1
percent effect: 72.98

SMILES: CNCc1nc(-c2ccc(F)cc2)no1
percent effect: 18.71

SMILES: O=C(c1ccsc1)N1CCC2(CC1)OCCO2
percent effect: 1.787

SMILES: COc1ncccc1C(=O)NCCc1cccs1
percent effect: 62.18

SMILES: COc1ccc(CCN)c(O)c1
percent effect: 52.08

SMILES: Cc1nn(C)c(N(C)C)c1CNCCc1cnn(C)c1
percent effect: -8.881

SMILES: CC(C)C(=O)NCc1cn2ccccc2n1
percent effect: -0.9389

SMILES: C=C(C)c1nc(C#N)c(NCc2ccco2)o1
percent effect: 76.18

SMILES: O=C(NCc1[nH]ncc1Br)Nc1nc2c(s1)COCC2
percent effect: 38.44

SMILES: CC(=O)NCCNC(=O)CN1CCNC(=O)C1C (configuration not stated)
percent effect: -1.525

SMILES: Cc1nc(CN)ccc1C(C)O (configuration not stated)
percent effect: -26.34

SMILES: CN(C)C1CCN(c2ncnc3c2cnn3C)CC1
percent effect: -2.244

SMILES: CCS(=O)(=O)NCc1ccc(OC)cc1
percent effect: 30.83

SMILES: CCN1CCCN(c2nc(C3CC3)no2)CC1
percent effect: -2.019

SMILES: NC(=O)Cc1ccccc1NC(=O)OCC(F)(F)F
percent effect: 13.19

SMILES: COCCOc1ccc(NC(=O)CSC(C)(C)C)cn1
percent effect: -191.9

SMILES: CNCC1(O)CCCc2ccccc21 (configuration not stated)
percent effect: -24.43

SMILES: CCCc1nc(CN2CCN(C(C)=O)CC2)cs1
percent effect: 14.41

SMILES: CN1CC(Nc2ccc(F)cc2C#N)CCC1=O (configuration not stated)
percent effect: -21.2

SMILES: CCC(NC(=O)CCn1cccn1)c1ccccc1O (configuration not stated)
percent effect: 17.26

SMILES: Cn1nc(CC#N)c2ccccc21
percent effect: -0.177

SMILES: CCCc1cc(N)[nH]n1
percent effect: 12.6

SMILES: CCOC(=O)CNC(=O)Nc1ccc(C#N)cc1
percent effect: 4.596

SMILES: CCCN(CCO)Cc1nc(CC(C)C)no1
percent effect: 12.93

SMILES: CNCc1csc(C)n1
percent effect: 5.951

The last 6 entries again:

* CCC(NC(=O)CCn1cccn1)c1ccccc1O (configuration not stated) : 17.26%
* Cn1nc(CC#N)c2ccccc21 : -0.177%
* CCCc1cc(N)[nH]n1 : 12.6%
* CCOC(=O)CNC(=O)Nc1ccc(C#N)cc1 : 4.596%
* CCCN(CCO)Cc1nc(CC(C)C)no1 : 12.93%
* CNCc1csc(C)n1 : 5.951%